PubChem BioAssay AID504761 – Drosophila RNAi Screening Center | 2011
In all, the deposit lists about 22,000 reagents; shown is a random part of those that have a named target and a result. Of all reagents, 116 (0.52%) were called active. 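Calls depend on retest data that are not deposited; infection was ranked per plate without normalising between plates; the unit of the infection score is not given.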 A number with no mark means an inactive call. The numbers tell different reagents against one gene apart. Not all columns of the deposit are shown. The record does not give: the amount of reagent, the time to read-out.

Screen: 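Genome-wide fly cell screen for genes dengue virus requires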 (primary screen)
Cells: D.Mel-2 cells from Drosophila
Reagent: long dsRNA against Drosophila genes
Conditions: infection with dengue virus type 2; dose and infection time not stated
Detection: 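Per well on two replicate plates, imaging gave the percent of cells positive for viral envelope protein, ranked by infection, and a nuclear count of cells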
Reading the numbers: infection score: higher = more virus-infected cells
Rule for the call: 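Low infection ranks in the two replicates (chance level up to 0.065) followed by a retest with a 1.5-fold or larger significant decrease, p below 0.05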
Calls: active = confirmed: knock-down lowers infection; inactive = not picked or not confirmed

The first 2 entries, ahead of the listing:
no.	Target gene	dsRNA no.	infection score, replicate 1	infection score, replicate 2
1	phol (GeneID 39095)	1	10.3	8.48
2	phol (GeneID 39095)	2	5.52	6.19

The listing, repeating the preview:
no.	Target gene	dsRNA no.	infection score, replicate 1	infection score, replicate 2
1	phol (GeneID 39095)	1	10.3	8.48
2	phol (GeneID 39095)	2	5.52	6.19
3	CG32806 (GeneID 318220)	1	0.93	21.4
4	CG32806 (GeneID 318220)	2	8.82	10.3
5	Elo68beta (GeneID 39245)	1	1.24	3.61
6	Takl2 (GeneID 42692)	1	0.92	7.15
7	CG46339 (GeneID 44359)	1	2.05	1.88
8	CG46339 (GeneID 44359)	2	2.39	5.34
9	tHMG2 (GeneID 42651)	1	20.1	17.4
10	TwdlJ (GeneID 43206)	1		8.4
11	CG13705 (GeneID 38587)	1	3	1.76
12	CG13705 (GeneID 38587)	2	23.6	2.63
13	CG13705 (GeneID 38587)	3	9.82	14.9
14	mAChR-C (GeneID 31626)	1	4.09	7.05
15	mAChR-C (GeneID 31626)	2	24.7	41.7
16	Uba5 (GeneID 32094)	1	14	4.49
17	Rap1 (GeneID 38244)	1	6.61	13.9
18	Rap1 (GeneID 38244)	2	18.4	8.32
19	CG14965 (GeneID 38388)	1	6.11	7
20	Flad2 (GeneID 34759)	1	3.38	2.21
21	Flad2 (GeneID 34759)	2	32.8	13.7
22	CG43322 (GeneID 33984)	1	6.01	2.64
23	CG43322 (GeneID 33984)	2	8.69	1.82
